Reference: paper PMC3358452 (Chemical Research in Toxicology, 2012)

System: F344 rat liver

How did the “promotion of AFB1-induced foci (in words)” value (1 (1.32 g over 12 weeks) after AFB1, group 2 vs group 1, t-test) turn out when `O=C1COCCO1` [compound 1, 1,4-Dioxan-2-one] was run?
Its value is “failed to statistically increase focal number or focal volume percent”.

What about the “rats with a focus” value (group 3 (1 only), cumulative total dose 1.32 g) of the same molecule?
The value was “one of 8”.
